Reference: patent US7947741B2, “Use and administration of bacterial efflux pump inhibitors” (Mpex Pharmaceuticals, Inc., priority 2004, dated 2011)
Converted amounts (≈) assume the structure as drawn.

How the values were obtained:
Type in all cases: cell-based, Pseudomonas aeruginosa
[1] = tested on: P. aeruginosa PAM1481 (MexAB-OprM; gyrA (Asp87Tyr)); experiment: microbe, parasite or virus in culture
[2] = tested on: P. aeruginosa PAM1573 (MexAB-OprM; gyrA (Thr83Ile)); experiment: microbe, parasite or virus in culture
[3] = tested on: P. aeruginosa PAM1483 (MexAB-OprM, MexCD-OprJ; gyrA (Asp87Tyr)); experiment: microbe, parasite or virus in culture
[4] = tested on: P. aeruginosa PAM1582 (MexAB-OprM; gyrA (Thr83Ile), parC (Ser87Leu))
[5] = tested on: P. aeruginosa PAM1609 (MexAB-OprM; gyrA (Thr83Ile), parC (Ser87Leu), gyrA (Asp87Tyr))
[6] = Pseudomonas aeruginosa, read-out: Ciprofloxacin MIC w/o pentamidine

Row | SMILES | MIC [1, 6] | MIC [2, 6] | MIC [3, 6] | Ciprofloxacin MIC w/pentamidine at 20 μg/ml ([1]; PAM1481) | Levofloxacin MIC w/pentamidine at 20 μg/ml ([1]; PAM1481) | Ciprofloxacin MIC w/pentamidine at 20 μg/ml ([2]; PAM1573) | Levofloxacin MIC w/pentamidine at 20 μg/ml ([2]; PAM1573) | Ciprofloxacin MIC w/pentamidine at 20 μg/ml [4] | Levofloxacin MIC w/pentamidine at 20 μg/ml [4] | Ciprofloxacin MIC w/pentamidine at 20 μg/ml ([3]; PAM1483) | Levofloxacin MIC w/pentamidine at 20 μg/ml ([3]; PAM1483) | Ciprofloxacin MIC w/pentamidine at 20 μg/ml [5] | Levofloxacin MIC w/pentamidine at 20 μg/ml [5]
1 | O=C(O)c1cn(C2CC2)c2cc(N3CCNCC3)c(F)cc2c1=O [Ciprofloxacin, ciprofloxacin] | 4 mg/L (≈ 12.1 µM) | 8 mg/L (≈ 24.1 µM) | 8 mg/L (≈ 24.1 µM) | – | – | – | – | – | – | – | – | – | –
2 | N=C(N)c1ccc(OCCCCCOc2ccc(C(=N)N)cc2)cc1 [Pentamidine, pentamidine] | – | – | – | 0.5 mg/L | 1 mg/L | 1 mg/L | 1 mg/L | 8 mg/L | 4 mg/L | 2 mg/L | 1 mg/L | 16 mg/L | 16 mg/L
